Source: patent publication US7604804 (dated 2009)

Test: general procedure: Fmoc solid-phase peptide synthesis; Fmoc-PAL-PEG-PS resin; HATU (DIPEA)
Conditions: oxidative folding step

## CD4M9-Cys-Glutathione
  oxidative folding yield: 75%
